The values below come from the supplement of paper PMC9931576.

Human monoclonal antibodies against the spike receptor-binding domain (heavy:light variable regions). IC50 against pseudoviruses bearing the spike of naturally observed variants; lower = stronger; >10 µg/ml means not reached at the top dose. No active / inactive call. The stated detection limit is 0.0005 µg/ml; values near or below 0.001 µg/ml lie at the floor of the assay.

B1: BD56-413 (protein)
chain 1: EVQLVESGGGLVQPGGSLRLSCAASGVTVSRNYMSWVRQAPGKGLEWVSVVYPGGTTDYADSVKGRFTISRHNSKNTLYLQMNSLRADDTAVYYCARDLGPSGTDVWGQGTTVTVSS
chain 2: IQLTQSPSSLSASVGDRVTITCRASQGISSDLAWYQQRPGKAPNLLIYAASTLQSGVPSRFSGSGSGTDFTLTISSLQPEDFATYYCQQLNSYPPPFGGGTKVEIK
B2: BD56-331 (protein)
chain 1: QVQLVESGGGVVQPGRSLRLSCAASGFTFSNYAMHWVRQAPGKGLEWVAIIWYDGSNKHYAESVKGRFTISRDNSKNTLYLQMNSLRAEDTAVYYCAKNEGVYGSGSYYLFDYWGQGTVVTVSS
chain 2: DIQMTQSPSSLSASVGDRVTITCQASQDISNYLNWYQEKPGKAPKLLIYEASKLETGVPSRFSGGGSETDFTFTISSLQPEDIATYYCQQFDNLPITFGQGTRLEIK
B3: BD58-0405 (protein)
chain 1: EVQLVESGGGVVQPGGSLRLSCAASGFTFDAYVMHWVRQAPGKGLEWVSLISGDGGSTYSADSVKGRFTISRDNSKNSLYLQMNSLRTEDTALYYCLFGDYGNWLDPWGQGTLVTVSS
chain 2: SYVLTQPPSVSVAPGQTARITCGGNNIGSKSVHWYQQKPGQAPVLVVYDDSDRPSGIPERFSGSNSGNTATLTISRVEAGDEADYSCQVWDSSSDHPVFGGGTKLTVL
B4: BD56-423 (protein)
chain 1: EVQLVESGGGLVQPGGSLRLSCAASGIIVSSNYMNWVRQAPGKGLEWVSVVYSGGSTFYADSVKGRFTISRHNSQNTLYLQLNSLRTEDTAVYYCARDLMEAGGMDVWGQGTTVIVSS
chain 2: EIVLTQSPGTLSLSPGERATLSCRASQSVSSSYLAWYQQKPGQPPRLLIYGASSRATGIPDRFSGSGSGTDFTLIITRLEPEDFAVYYCQQYGSSPPGITFGQGTRLEIK
B5: BD56-333 (protein)
chain 1: QVQLVQSGAEVKKPGASVKVSCKASGYTFTNYYMHWVRQAPGQGLEWMGIINPSGGSTSSAQKFQGRVTMTRDTSTSTVYMELSSLRSEDTAVYYCARDIVLIPAGSAMDVWGQGTTVTVSS
chain 2: QSALTQPASVSGSPGQSITISCTGTSSDVGRYNYVSWYQQHPGKAPQLMIYDVSERPSGVSNRFSGSKSGNTASLTISGLQAEDEADYYCSAKRSSSSFVFGGGTKLTVL
B6: BD56-416 (protein)
chain 1: QVQLVQSGAEVKKPGSSVKVSCKASGGTFSNYAINWVRQAPGQGLEWMGRIIPILTTANYAQKFQGRVTIIADKSTSTAYMELSSLRSEDTAVYYCARGGMVGAEYYFDYWGQGTLVTVSS
chain 2: DIVMAQSPDSLAVSLGERATINCKSSQSVLYSSNNKNYLAWYQQKPGQPPKLLIYWASTRESGVPDRFSGSGSGTDFTLTISSLQAEDVAVYYCQQYYSTHSRTFGQGTKVEIK

The first test addresses SARS-CoV-2 Omicron BA.1 spike pseudovirus. Nature of the test: pseudovirus neutralization IC50; higher = weaker neutralization. Here is the method:
(§1)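 Single-round VSV luciferase pseudovirus mixed with antibody dilutions for 1 h and put on Huh-7 cells for about a day; IC50 from the dose curve.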
For B1, the “pseudovirus neutralization IC50” value amounted to 0.4 µg/mL.
Regarding B2, the “pseudovirus neutralization IC50” value was > 10 µg/mL.
Take B3: the “pseudovirus neutralization IC50” value is > 10 µg/mL.
As for B4, the “pseudovirus neutralization IC50” value worked out at 0.146 µg/mL.
Same read-out and setting: under B5 stands > 10 µg/mL; under B6, 1.3 µg/mL.

The target of the next test is SARS-CoV-2 Omicron BA.2 spike pseudovirus. The description is as above. As for the experimental part:
as §1
B1: the “pseudovirus neutralization IC50” value was found to be 0.396 µg/mL.
For B2, the “pseudovirus neutralization IC50” value was > 10 µg/mL.
The same measure, in the same setting: under B3 stands 0.033 µg/mL; under B4, 0.0999 µg/mL; under B5, > 10 µg/mL.
Same read-out and setting: under B6 stands 0.918 µg/mL.

The next test addresses SARS-CoV-2 Omicron BA.2.75 spike pseudovirus. The description is as above. Here is the method:
as §1
Regarding B1, the “pseudovirus neutralization IC50” value was > 10 µg/mL.
For the molecule B2, the “pseudovirus neutralization IC50” value is > 10 µg/mL.
As for B3, the “pseudovirus neutralization IC50” value is > 10 µg/mL.
Take B4: the “pseudovirus neutralization IC50” value stood at 1.01 µg/mL.
Regarding B5, the “pseudovirus neutralization IC50” value was > 10 µg/mL.
Take B6: the “pseudovirus neutralization IC50” value worked out at 0.0109 µg/mL.

For a further test, the target named is SARS-CoV-2 Omicron BA.5 spike pseudovirus. Described as above. Here is the method: as §1
With B1, the “pseudovirus neutralization IC50” value is > 10 µg/mL.
With B2, the “pseudovirus neutralization IC50” value was > 10 µg/mL.
Still for that read-out and setting: under B3 stands 0.00682 µg/mL; under B4, 1.51 µg/mL.
As for B5, the “pseudovirus neutralization IC50” value was > 10 µg/mL.
For the molecule B6, the “pseudovirus neutralization IC50” value is > 10 µg/mL.

In the next test the target is SARS-CoV-2 Omicron BQ.1.1 spike pseudovirus. Described as above. As for the experimental part:
as §1
Consider B1, for which the “pseudovirus neutralization IC50” value is > 10 µg/mL.
B2: the “pseudovirus neutralization IC50” value was > 10 µg/mL.
Consider B3, for which the “pseudovirus neutralization IC50” value was > 10 µg/mL.
On the same count and under the same terms, under B4 stands > 10 µg/mL; under B5, > 10 µg/mL; under B6, > 10 µg/mL.

The target of the next test is SARS-CoV-2 Omicron XBB spike pseudovirus. The description is as above. Here is the method:
as §1
With B1, the “pseudovirus neutralization IC50” value was > 10 µg/mL.
On the same count and under the same terms, under B2 stands > 10 µg/mL; under B3, > 10 µg/mL.
Regarding B4, the “pseudovirus neutralization IC50” value is > 10 µg/mL.
As for B5, the “pseudovirus neutralization IC50” value is > 10 µg/mL.
In the case of B6, the “pseudovirus neutralization IC50” value is > 10 µg/mL.

The target of the next test is SARS-CoV-2 early D614G spike pseudovirus. The test is described as above. As for the experimental part: as §1
Regarding B1, the “pseudovirus neutralization IC50” value was found to be 0.00878 µg/mL.
For B2, the “pseudovirus neutralization IC50” value is > 10 µg/mL.
On the same count and under the same terms, the result for B3 reads > 10 µg/mL; that for B4, 0.0118 µg/mL; that for B5, > 10 µg/mL.
Turning to B6, the “pseudovirus neutralization IC50” value stood at 0.0103 µg/mL.

The next test has as its target SARS-CoV-2 Omicron BA.2.75.2 spike pseudovirus. The description is as above. As for the experimental part: as §1
With B3, the “pseudovirus neutralization IC50” value is > 10 µg/mL.

Another test has as its target SARS-CoV-2 Omicron BM.1.1.1 spike pseudovirus. Described as above. Here is the method:
as §1
Regarding B3, the “pseudovirus neutralization IC50” value was > 10 µg/mL.

The next test has as its target SARS-CoV-2 Omicron BR.2 spike pseudovirus. The description is as above. Here is the method:
as §1
Turning to B3, the “pseudovirus neutralization IC50” value is > 10 µg/mL.

In a further test the target is SARS-CoV-2 Omicron CA.1 spike pseudovirus. The description is as above. As for the experimental part:
as §1
As to B3, the “pseudovirus neutralization IC50” value is > 10 µg/mL.
